# Measurements: ChEMBL document CHEMBL4425082, “Antimalarial Chemotherapy: Natural Product Inspired Development of Preclinical and Clinical Candidates with Diverse Mechanisms of Action” (J Med Chem, 2016)
# System: Plasmodium falciparum
# Test: Antimalarial activity against chloroquine-resistant Plasmodium falciparum K1 after 24 hrs in presence of hypoxanthine
smiles,measurement,value
C1CCC2(CC1)OOC1(CCCCC1)OO2,IC50,25 nM
